Anti-infective test results gathered from many reports (values: NIAID ChemDB through PubChem).

All rows: growth or infection tests; species: HIV-1; method: p24; read-out: EC50

ECn is the concentration giving n% inhibition of infection, replication or growth. Lines come from different laboratories, so protocols vary. Blank or dashed fields: not listed here.

O=C1N(Cc2ccc(CO)cc2)[C@H](Cc2ccccc2)[C@H](O)[C@@H](O)[C@@H](Cc2ccccc2)N1Cc1ccc(CO)cc1 ; changes: PR-L10R M46I L63P ; strain: NL4-3 ; cell line: MT-4 ; result: <0.2 µM
COc1ccc2c(c1)N(C(=O)OC(C)C)[C@@H](CSC)C(=S)N2 ; changes: RT-V106A ; strain: IIIB ; cell line: CEM ; result: 0.002 µg/mL
Cc1cc(C)c(-n2nnnc2SCC(=O)Nc2ccc(F)cc2Cl)c(C)c1 ; cell line: MT-4 ; result: <10 µM
CC(=O)N1CCC(C(=O)N(CCCN2CCC(Cc3ccc(C(N)=O)cc3)CC2)c2ccc(C)c(Cl)c2)CC1 ; strain: HTN R5 clinical isolate ; cell line: PBMC ; result: 0.00093 µM
Nc1ccn([C@@H]2CS[C@H](CO)O2)c(=O)n1 ; strain: LAI Laboratory isolate ; cell line: PBMC ; result: 0.021 µM
c1cc(CN2CCCNCCNCCCNCC2)ccc1CN1CCCNCCNCCCNCC1 ; strain: 92US714 CLADE B R5 ; cell line: PBMC ; result: >0.5 µM
Cc1cn([C@H]2C[C@H](N=[N+]=[N-])[C@@H](CO)O2)c(=O)[nH]c1=O ; strain: IIIB ; cell line: MT-4 ; result: 0.04 µM
C[C@H](Cn1cnc2c(N)ncnc21)OCP(=O)(O)O ; strain: IIIB ; cell line: MT-2 ; result: 0.63 µM
CC(C)CN(C[C@@H](O)[C@H](Cc1ccccc1)NC(=O)O[C@H]1CCOC1)S(=O)(=O)c1ccc(N)cc1 ; changes: PR-D30N A71V ; strain: NL4-3-P22 (PR D30N A71V) ; cell line: MT-4 ; result: <0.04 µM
CCO/N=C(\c1ccc(Br)cc1)C1CCN(C2(C)CCN(C(=O)c3c(C)cc[n+]([O-])c3C)CC2)CC1 ; strain: ASM 57 R5 CLADE B ; cell line: PBMC ; result: 0.01 µM
Cc1cc(C)c(-n2nnnc2SCC(=O)Nc2ccc(OCCCN(C)C)cc2Cl)c(C)c1 ; conditions: 50% human serum ; cell line: MT-4 ; result: <0.2 µM
CC(C)CN(C[C@@H](O)[C@H](Cc1ccccc1)NC(=O)O[C@H]1CCOC1)S(=O)(=O)c1ccc(N)cc1 ; changes: PR-L10R N37D M46I I62V L63P A71V G73S V77I V82T L90M I93L ; strain: Clinical isolate ; cell line: PBMC ; result: 0.15 µM
O=C(CSc1nnnn1-c1cccc(Cl)c1Cl)Nc1ccccc1[N+](=O)[O-] ; conditions: 50% human serum ; cell line: MT-4 ; result: <0.125 µM
Nc1ccn([C@H]2CC[C@@H](CO)O2)c(=O)n1 ; changes: RT-M184V ; strain: HXB2D (RT-M184V) ; cell line: MT-4 ; result: 2.5 µM
O=c1[nH]cnc2c1ncn2[C@H]1CC[C@@H](CO)O1 ; changes: RT-L74V ; strain: L74V(RT-L74V) ; cell line: MT-2 ; result: 3.2 µM
Cc1cccc(-n2nnnc2SCC(=O)Nc2ccccc2[N+](=O)[O-])c1C ; conditions: 50% human serum ; cell line: MT-4 ; result: <0.25 µM
O=C(CSc1nnnn1-c1cccc2ccccc12)Nc1ccccn1 ; cell line: MT-4 ; result: <10 µM
CC(C)CN(C[C@@H](O)[C@H](Cc1ccccc1)NC(=O)[C@H](CC(N)=O)NC(=O)c1ccc2ccccc2n1)C(=O)NC(C)(C)C ; changes: PR-M46I V82T I84V ; strain: NL4-3 ; cell line: MT-4 ; result: <0.8 µM
Nc1nc(NC2CC2)c2ncn([C@H]3C=C[C@@H](CO)C3)c2n1 ; changes: 1 (Δ.67+T69G+K103N) ; strain: RT Δ.67 T69G K103N ; cell line: MT-2 ; result: 0.178 µM
C[C@H](CNC(=S)Nc1ccc(Cl)cn1)c1ccccc1 ; changes: RT-Y181C K103N ; strain: NNRTI-resistant (RT Y181C K103N) A17V ; cell line: PBMC ; result: >100 µM
Cc1cn([C@@H]2O[C@H](CO[Si](C)(C)C(C)(C)C)C3(OS(=O)(=O)C=C3N)[C@H]2O[Si](C)(C)C(C)(C)C)c(=O)n(C)c1=O ; changes: RT-M184I ; strain: IIIB ; cell line: CEM ; result: 0.025 µg/mL
Nc1ncnc2c1ncn2[C@@H]1O[C@H](CO)C[C@@H]1F ; changes: RT-L74V ; strain: L74V(RT-L74V) ; cell line: MT-2 ; result: 14 µM
Cc1ccnc2c1NC(=O)c1cccnc1N2C1CC1 ; changes: RT-delta67 T69G ; cell line: MT-2 ; result: 0.016 µM
Nc1ccn([C@@H]2CO[C@H](CO)S2)c(=O)n1 ; strain: IIIB ; cell line: U-937 ; result: 0.3 µM
Nc1ccn([C@H]2CC[C@@H](CO)O2)c(=O)n1 ; strain: U455 ; cell line: U-937 ; result: 0.05 µM
Cc1cc(C)c(-n2nnnc2SCC(=O)Nc2ccc(C(N)=O)cc2Cl)c(C)c1 ; conditions: 10% FBS ; cell line: MT-4 ; result: <0.008 µM
O=c1[nH]cnc2c1ncn2[C@H]1CC[C@@H](CO)O1 ; changes: RT-A62V V75I F77C F116Y Q151M ; strain: XM-Q151M ; cell line: PBMC ; result: <106 µM
CC(C)(C)NC(=O)[C@@H]1C[C@@H]2CCCC[C@@H]2CN1C[C@@H](O)[C@H](Cc1ccccc1)NC(=O)[C@H](CC(N)=O)NC(=O)c1ccc2ccccc2n1 ; changes: PR-L10I K43T M46L I54L L63P A71T V82A L90M Q92K ; strain: Clinical isolate ; cell line: PBMC ; result: 0.31 µM
Nc1ncnc2c1ncn2CCOCP(=O)(O)O ; changes: RT-K65R ; strain: K65R(RT-K65R) ; cell line: MT-2 ; result: 0.4 µM
Cc1csc(NC(=S)NC[C@H](C)c2ccccc2)n1 ; changes: RT-Y181C ; strain: NNRTI-resistant (RT Y181C) A17 ; cell line: PBMC ; result: 6.85 µM
CCC[C@@]1(CCc2ccccc2)CC(O)=C([C@H](CC)c2cccc(NS(=O)(=O)c3ccc(C(F)(F)F)cn3)c2)C(=O)O1 ; strain: 477 clinical isolates delavirdine-resistant ; cell line: PBMC ; result: <0.04 µM
O=C1N(Cc2ccc(CO)cc2)[C@H](Cc2ccccc2)[C@H](O)[C@@H](O)[C@@H](Cc2ccccc2)N1Cc1ccc(CO)cc1 ; strain: A018A ; cell line: PBMC ; result: 0.07 µM
Cc1c(O)cccc1C(=O)N[C@@H](CSc1ccccc1)[C@H](O)CN1C[C@H]2CCCC[C@H]2C[C@H]1C(=O)NC(C)(C)C ; strain: LAI Laboratory isolate ; cell line: PBMC ; result: 0.009 µM
CC(C)[C@H](NC(=O)c1ccc2ccccc2n1)C(=O)N[C@@H](Cc1ccccc1)[C@H](O)CN1CC[C@@H](OCc2ccncc2)C[C@H]1C(=O)NC(C)(C)C ; strain: IIIB ; cell line: C8166 ; result: 0.005 µM
Cc1cn([C@H]2C[C@H](N=[N+]=[N-])[C@@H](CO)O2)c(=O)[nH]c1=O ; strain: IIIB ; cell line: PBMC ; result: 0.003 µM
Nc1nc(=O)n([C@H]2CO[C@@H](CO)S2)cc1F ; strain: IIIB ; cell line: H9 ; result: 1 µM
C[C@H](CNC(=S)Nc1ccc(Br)cn1)c1ccccc1 ; changes: RT-Y181C K103N ; strain: NNRTI-resistant (RT Y181C K103N) A17V ; cell line: PBMC ; result: 1.23 µM
Cc1cn([C@H]2C[C@H](N=[N+]=[N-])[C@@H](CO)O2)c(=O)[nH]c1=O ; changes: RT-F77L ; strain: Recombinant ; cell line: PBMC ; result: 0.001 µM
CCc1cc(NCc2nc3c(Cl)ccc(Cl)c3o2)c(=O)[nH]c1C ; changes: RT-Y188L ; strain: NL4-3 ; cell line: MT-4 ; result: >3 µM
CCOC(=O)Cc1csc(NC(=S)NC(CC)c2ccccc2)n1 ; strain: IIIB ; cell line: PBMC ; result: 0.05 µM
O=c1[nH]cnc2c1ncn2[C@H]1CC[C@@H](CO)O1 ; strain: 9451 CLADE C CLADE C ; cell line: PBMC ; result: 0.227 µM
COC(=O)[C@H](C)NP(=O)(OC[C@@H]1C=C[C@H](n2cc(C)c(=O)[nH]c2=O)O1)Oc1ccc(Br)cc1 ; changes: RT-M41L F116S T215Y ; strain: X267-5 NRTI resistant ; cell line: PBMC ; result: 0.03 µM
C[C@@H](NC(=S)Nc1ccc(Br)cn1)c1cccc2ccccc12 ; strain: IIIB ; cell line: PBMC ; result: 0.0015 µM
Cc1cccc(C)c1-n1nnnc1SCC(=O)Nc1ccccc1Cl ; cell line: MT-4 ; result: <10 µM
Cc1occc1C(=S)Nc1ccc(Cl)c(/C=N/OC(C)(C)C)c1 ; changes: RT-M184I ; strain: IIIB ; cell line: CEM ; result: 0.009 µg/mL
Nc1ccn([C@@H]2CS[C@H](CO)O2)c(=O)n1 ; changes: RT-T69K K70G V75I F77L F116Y Q151M M184V ; strain: 56252-1 NRTI resistant recombinant ; cell line: PBMC ; result: >10 µM
Cc1cn([C@H]2C[C@H](N=[N+]=[N-])[C@@H](CO)O2)c(=O)[nH]c1=O ; changes: RT-F77L F116Y Q151M ; strain: RT F77L/F116Y/Q151M ; cell line: MT-2 ; result: 0.71 µM
Cc1cc(C)c(-n2nnnc2SCC(=O)Nc2ccccc2I)c(C)c1 ; conditions: 10% FBS ; cell line: MT-4 ; result: <0.312 µM
COC(=O)[C@H](C)NP(=O)(OC[C@@H]1C=C[C@H](n2cc(C)c(=O)[nH]c2=O)O1)Oc1ccc(Br)cc1 ; strain: IIIB ; cell line: PBMC ; result: 0.001 µM
O=C(CSc1nnnn1-c1cc(F)ccc1Cl)Nc1ccccc1[N+](=O)[O-] ; conditions: 50% human serum ; cell line: MT-4 ; result: <0.25 µM
Cc1cn([C@H]2C[C@H](N=[N+]=[N-])[C@@H](CO)O2)c(=O)[nH]c1=O ; changes: RT-M184V ; strain: XM-M184V ; cell line: MT-4 ; result: <0.009 µM
Nc1ccn([C@@H]2CS[C@H](CO)O2)c(=O)n1 ; changes: RT-Q151M ; strain: RT-Q151M Recombinant ; cell line: PBMC ; result: 0.02 µM
S=C(NCCc1cccs1)Nc1ccc(Br)cn1 ; changes: RT-M41L L74CV L210W T215Y ; strain: X267-1 Clinical isolate NRTI-resistant ; cell line: PBMC ; result: 0.004 µM
Cc1cccc(Cl)c1-n1nnnc1SCC(=O)Nc1ccccc1Cl ; cell line: MT-4 ; result: <10 µM
O=C(CSc1nnnn1-c1c(Cl)cccc1Cl)Nc1ccccc1[N+](=O)[O-] ; conditions: 10% FBS ; cell line: MT-4 ; result: <0.015 µM
O=c1c2ccccc2n2nnc3ccc(NCCCN4CCN(CCCNc5ccc6nnn7c8ccccc8c(=O)c5c67)CC4)c1c32 ; strain: CLADE E ; cell line: PBL ; result: 0.008 µM
C=C(C)OC(=O)N1c2cc(Cl)ccc2NC(=S)C1(C)C ; changes: RT-M184V ; strain: IIIB ; cell line: CEM ; result: 0.003 µg/mL

A second listing of 8 rows from above:

structure	conditions	changes	strain	cell line	result
O=C1N(Cc2ccc(CO)cc2)[C@H](Cc2ccccc2)[C@H](O)[C@@H](O)[C@@H](Cc2ccccc2)N1Cc1ccc(CO)cc1		PR-L10R M46I L63P	NL4-3	MT-4	<0.2 µM
Cc1cc(C)c(-n2nnnc2SCC(=O)Nc2ccc(OCCCN(C)C)cc2Cl)c(C)c1	50% human serum			MT-4	<0.2 µM
O=c1[nH]cnc2c1ncn2[C@H]1CC[C@@H](CO)O1			9451 CLADE C CLADE C	PBMC	0.227 µM
O=c1[nH]cnc2c1ncn2[C@H]1CC[C@@H](CO)O1		RT-A62V V75I F77C F116Y Q151M	XM-Q151M	PBMC	<106 µM
Nc1ccn([C@@H]2CO[C@H](CO)S2)c(=O)n1			IIIB	U-937	0.3 µM
O=C(CSc1nnnn1-c1cc(F)ccc1Cl)Nc1ccccc1[N+](=O)[O-]	50% human serum			MT-4	<0.25 µM
CC(C)[C@H](NC(=O)c1ccc2ccccc2n1)C(=O)N[C@@H](Cc1ccccc1)[C@H](O)CN1CC[C@@H](OCc2ccncc2)C[C@H]1C(=O)NC(C)(C)C			IIIB	C8166	0.005 µM
Nc1ncnc2c1ncn2CCOCP(=O)(O)O		RT-K65R	K65R(RT-K65R)	MT-2	0.4 µM